{
  "source": "patent US9814918B2",
  "about": "“Microbial deactivation of explosive compositions” (dated 2017)",
  "key": {"[1]": {"system": "Gibberella moniliformis CD611", "experiment": "Induction of nitroglycerin-degrading activity in Gibberella moniliformis CD611", "details": "29 h in Luria Broth, 0.5 mM GTN, PETN, 1 mM DMFU, 4 mM DEME, 1 mM TPBO, TBHQ, DMME; for nitroglycerin-degrading activity of cell-free extract: NADPH"}, "[2]": {"system": "Klebsiella pneumoniae BB6", "experiment": "Induction of nitroglycerin-degrading activity in Klebsiella pneumoniae BB6", "details": "24 h in Luria Broth, 0.5 mM NEM, 0.5 mM MD, 1 mM DMFU, 4 mM DEME, DEMO, DMMO, 0.5 mM GTN, PETN, TNT; for nitroglycerin-degrading activity of cell-free extract: NADPH"}, "[3]": {"system": "Agrobacterium tumifaciens PD31", "experiment": "Induction of nitroglycerin-degrading activity in Agrobacterium tumifaciens PD31", "details": "24 h in Luria Broth, 0.5 mM NEM, 0.25 mM MD, 1 mM DMFU, 4 mM DEME, DEMO, DMMO, 0.5 mM GTN, PETN, TNT; for nitroglycerin-degrading activity of cell-free extract: NADH"}},
  "data": [
    {"smiles": "CCOC(=O)/C=C\\C(=O)OCC", "values": [
      {"measurement": "Fold-Induction relative to the control", "setting": "[1]", "value": 27, "unit": "fold"},
      {"measurement": "nitroglycerin-degrading activity of cell-free extract", "setting": "[1]", "value": 2.7, "unit": "U/g"},
      {"measurement": "Fold-Induction relative to the control", "setting": "[2]", "value": 58, "unit": "fold"},
      {"measurement": "nitroglycerin-degrading activity of cell-free extract", "setting": "[2]", "value": 165, "unit": "U/g"},
      {"measurement": "nitroglycerin-degrading activity of cell-free extract", "setting": "[3]", "value": 29, "unit": "U/g"}
    ]},
    {"smiles": "COC(=O)/C=C/C(=O)OC", "values": [
      {"measurement": "Fold-Induction relative to the control", "setting": "[1]", "value": 11, "unit": "fold"},
      {"measurement": "nitroglycerin-degrading activity of cell-free extract", "setting": "[1]", "value": 1.1, "unit": "U/g"},
      {"measurement": "Fold-Induction relative to the control", "setting": "[2]", "value": 106, "unit": "fold"},
      {"measurement": "nitroglycerin-degrading activity of cell-free extract", "setting": "[2]", "value": 303, "unit": "U/g"},
      {"measurement": "Fold-Induction relative to the control", "setting": "[3]", "value": 1.3, "unit": "fold"},
      {"measurement": "nitroglycerin-degrading activity of cell-free extract", "setting": "[3]", "value": 24, "unit": "U/g"}
    ]},
    {"smiles": "CC(C)(C)c1cc(O)ccc1O", "values": [
      {"measurement": "Fold-Induction relative to the control", "setting": "[1]", "value": 2.5, "unit": "fold"},
      {"measurement": "nitroglycerin-degrading activity of cell-free extract", "setting": "[1]", "value": 0.25, "unit": "U/g"}
    ]},
    {"smiles": "CCN1C(=O)C=CC1=O", "values": [
      {"measurement": "Fold-Induction relative to the control", "setting": "[2]", "value": 1.6, "unit": "fold"},
      {"measurement": "nitroglycerin-degrading activity of cell-free extract", "setting": "[2]", "value": 4.5, "unit": "U/g"},
      {"measurement": "nitroglycerin-degrading activity of cell-free extract", "setting": "[3]", "value": 27, "unit": "U/g"}
    ]},
    {"smiles": "COC(=O)CC(=O)OC", "values": [
      {"measurement": "Fold-Induction relative to the control", "setting": "[2]", "value": 1.6, "unit": "fold"},
      {"measurement": "nitroglycerin-degrading activity of cell-free extract", "setting": "[2]", "value": 4.6, "unit": "U/g"},
      {"measurement": "Fold-Induction relative to the control", "setting": "[3]", "value": 1.1, "unit": "fold"},
      {"measurement": "nitroglycerin-degrading activity of cell-free extract", "setting": "[3]", "value": 21, "unit": "U/g"}
    ]},
    {"smiles": "O=[N+]([O-])OCC(CO[N+](=O)[O-])O[N+](=O)[O-]", "values": [
      {"measurement": "nitroglycerin-degrading activity of cell-free extract", "setting": "[1]", "value": "<0.10", "unit": "U/g"},
      {"measurement": "Fold-Induction relative to the control", "setting": "[2]", "value": 1.0, "unit": "fold"},
      {"measurement": "nitroglycerin-degrading activity of cell-free extract", "setting": "[2]", "value": "<0.10", "unit": "U/g"},
      {"measurement": "nitroglycerin-degrading activity of cell-free extract", "setting": "[3]", "value": 19, "unit": "U/g"}
    ]},
    {"smiles": "CCOC(=O)CC(=O)OCC", "values": [
      {"measurement": "Fold-Induction relative to the control", "setting": "[2]", "value": 5.1, "unit": "fold"},
      {"measurement": "nitroglycerin-degrading activity of cell-free extract", "setting": "[2]", "value": 15, "unit": "U/g"},
      {"measurement": "Fold-Induction relative to the control", "setting": "[3]", "value": 1.2, "unit": "fold"},
      {"measurement": "nitroglycerin-degrading activity of cell-free extract", "setting": "[3]", "value": 22, "unit": "U/g"}
    ]},
    {"smiles": "CC1=CC(=O)c2ccccc2C1=O", "values": [
      {"measurement": "Fold-Induction relative to the control", "setting": "[2]", "value": 8.8, "unit": "fold"},
      {"measurement": "nitroglycerin-degrading activity of cell-free extract", "setting": "[2]", "value": 25, "unit": "U/g"},
      {"measurement": "Fold-Induction relative to the control", "setting": "[3]", "value": 1.3, "unit": "fold"},
      {"measurement": "nitroglycerin-degrading activity of cell-free extract", "setting": "[3]", "value": 24, "unit": "U/g"}
    ]},
    {"smiles": "CC(=O)/C=C/c1ccccc1", "values": [
      {"measurement": "Fold-Induction relative to the control", "setting": "[1]", "value": 1.0, "unit": "fold"},
      {"measurement": "nitroglycerin-degrading activity of cell-free extract", "setting": "[1]", "value": "<0.10", "unit": "U/g"}
    ]},
    {"smiles": "COC(=O)/C=C\\C(=O)OC", "values": [
      {"measurement": "Fold-Induction relative to the control", "setting": "[1]", "value": 25, "unit": "fold"},
      {"measurement": "nitroglycerin-degrading activity of cell-free extract", "setting": "[1]", "value": 2.5, "unit": "U/g"}
    ]}
  ]
}
